Literature values in patent US20070027088A1 (priority 2003, published 2007).

Key:
a large number of toxins = settings: cited from earlier work
[1] = system: three separate and antigenically distinct toxins; settings: mouse, in vivo; cited from earlier work
MHC II molecule = settings: cited from earlier work

CMYGGVTEHEGN
inhibition of blastogenic properties of toxins (a large number of toxins): inhibit blastogenic properties of a large number of toxins | blocking of lethal effects of toxins [1]: block the lethal effects of three separate and antigenically distinct toxins | binding to MHC II (MHC II molecule): binds to a MHC II molecule
